# This is one part of the list. Env chains of viruses from a treatment-interruption trial, translated from the printed DNA. IC50 / IC80 of two broadly neutralizing antibodies; lower = more sensitive virus; >50 µg/ml means not reached and <0.001 µg/ml is below the lowest dose. No active / inactive call.
# B1: HIV-1 Env, rebound clone, antibody arm (protein)
# chain: MTVKGIRRNWQHWWKWSTMLFGILMIYSTAEQLWVTVYYGVPVWKDATTTLFCASDAKAYDTEVHNVWATHACVPTDPNPQEVQLGNVTENFNMWKNNMVEQMQEDIISLWDEGLKPCVKLTPLCVTLNCTDTLNCTNKLENTTNNCNASVGEKSKGEIKNCSFYVTASMNDEKKKEHALFYSLDIAPIDKGNNKNNSTFTNYRLISCNTSVITQACPKVSFEPIPIHYCTPAGFAMLRCNDKKFNGTGPCKNVSTVQCTHGIRPVVSTQLLLNGSLAEEEVVIRSENFTNNAKTIIVQLNETVIINCTRPRYYTTRHRIHIGRGRTFYTAKNIAGTIRQAYCNLSRVDWNNTLKMVAEKLTEQFNKTIAFQPSSGGDPEIVMHSFNCGGEFFYCNTTQLFNSTWNGTQSSNADGNDTIKLPCKIKQFINRWQEVGKAMYAPPIEGLVNCSSRITGLLLTRDGGNNTINNTETFRPGGGDMRDNWRSELYKYKVVKVEPLGIAPTKARRRVVQREKRAVTLGALFLGFLGAAGSTMGAASMTLTVQARQLLSGIVQQQNNLLRAIEAQQHMLQLTVWGIKQLQARVLAVERYLHDQQLLGIWGCSGKLICTTAVPWNTSWSNKSLTDIWDNMTWMEWDREINNYTKLIYTLLEKSQNQQEKNEQELLELDKWANLWSWFDITNWLWYIKIFIMVVGGLIGLRIVFMILSIVNRVRQGYSPLSLQTRLPTPRGPDRPEGIEEGGGERDKDGSNRLVDGFLALIWDDLRSLCLFSYHRLRDLLLIVTRIVELLGRRGWEALKYWWNLLQYWGQELRQSAISLLNATAIAVAEGTDRIIEFIQRAGRAIIHIPRRIRQGFERALQ
# B2: HIV-1 Env, rebound clone, antibody arm (protein)
# chain: MTVKGIRRNWQHWWKWSTMLFGILMIYSTAEQLWVTVYYGVPVWKDATTTLFCASDAKAYDTEVHNVWATHACVPTDPNPQEVQLGNVTENFNMWKNNMVEQMQEDIISLWDEGLKPCVKLTPLCVTLNCTDTLNCTNKLENTTNNCNASVGEKSKGEIKNCSFYVTASMNDEKKKEHALFYSLDIAPIDKGNNKNNSTFTNYRLISCNTSVITQACPKVSFEPIPIHYCTPAGFAMLRCNDKKFNGTGPCKNVSTVQCTHGIRPVVSTQLLLNGSLAEEEVVIRSENFTNNAKTIIVQLNETVIINCTRPRYYTTRHRIHIGRGRTFYTAKNIAGTIRQAYCNLSRVDWNNTLKMVAEKLTEQFNKTIAFQPSSGGDPEIVMHSFNCGGEFFYCNTTQLFNSTWNGTQSSNADGNDTIKLPCKIKQFINRWQEVGKAMYAPPIEGLVNCSSRITGLLLTRDGGNNTTNNTETFRPGGGDMRDNWRSELYKYKVVKVEPLGIAPTKARRRVVQREKRAVTLGALFLGFLGAAGSTMGAASMTLTVQARQLLSGIVQQQNNLLRAIEAQQHMLQLTVWGIKQLQARVLAVERYLHDQQLLGIWGCSGKLICTTAVPWNTSWSNKSLTDIWDNMTWMEWDREINNYTKLIYTLLEKSQNQQEKNEQELLELDKWANLWSWFDITNWLWYIKIFIMVVGGLIGLRIVFMILSIVNRVRQGYSPLSLQTRLPTPRGPDRPEGIEEGGGEKDKDGSNRLVDGFLALIWDDLRSLCLFSYHRLRDLLLIVTRIVELLGRRGWEALKYWWNLLQYWGQELRQSAISLLNATAIAVAEGTDRIIEFIQRAGRAIIHIPRRIRQGFERALQ
# B3: HIV-1 Env, rebound clone, antibody arm (protein)
# chain: MKVRGMKRNYQHLWGWGTMLLFWMIIMCKAAGNLWVTVYYGVPVWRDAETTLFCASDAKAYDKEVHNVWATHACVPTDPNPQEVRLENVTENFNMWENNMVEQMQTDIISLWDQSLKPCVKLTPLCVTLECTEPKLNSSTSNNSLSSTSNNSQYEEMKNCSFNMTTELRDKQKKVYSLFYKLDIVETDNNSSRYRLINCNTSTLTQACPKVTFEPIPIYYCAPAGFAILKCNDPQFNGTGPCTNVSTVQCTHGIKPVVSTQLLLNGSLAKEQVMIRSKNITDNSKTIIVQLKKPVNITCIRPGNNTRTSIRIGPGQAFYATGEITGDIRKAHCNVSRAEWNRTLQEISTQLQGYFNNKTIIFKNSSGGDLEVTTHSFNCGGEFFYCNTTKLFNSTWYGNETVINGTEASENITLQCRIKQIINMWQRVGQAMYAPPIRGEIRCESNITGLLLTRDGGGGNSSNNETFRPTGGDMRDNWRSELYKYKVVQVEPIGIAPTPAKRRVVEREKRAVGLGAAFLGFLGAAGSTMGAASLTLTVQARQLLSGIVQQQSNLLRAIEAQQHLLKLTVWGIKQLQARVLAVERYLRDQQLLGIWGCSGKLICTTAVPWNSSWSNKSYKDIWDNMTWMQWDKEVLNYTSIIYSLLEESQNQQEKNEQDLLALDKWASLWSWFDISKWLWYIKIFIMIVGGLIGLRIVFTVLSIINRVRQGYSPLSLQTLTPHPEEPDRPGRINEEGGEQDKGRSIRLVNGFLALAWDDLRSLCLFSYHRLRDFISIAARTVELLGRSSLKGLRLGWEGLKYLRNLLGYWSRELKNSAINLIDTIAIAVAGWTDRVIEIVQGSCRAIRNIPRRIRQGAEKALQ
# Target: antibody 10-1074
# Test: neutralization IC50; higher = virus less sensitive to the antibody
# Procedure: (§1)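 Pseudovirus bearing the Env chain mixed with antibody, from 50 µg/ml in fivefold dilutions, on TZM-bl reporter cells, in duplicate.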
row,Binder,neutralization IC50 [µg/mL]
1,B1,> 50
2,B2,> 50
3,B3,0.068

# Target: antibody 3BNC117
# Test: as above
# Procedure: as §1
row,Binder,neutralization IC50 [µg/mL]
1,B1,0.087
2,B2,4.62
3,B3,0.042

# Target: antibody 10-1074
# Test: neutralization IC80; higher = virus less sensitive to the antibody
# Procedure: as §1
row,Binder,neutralization IC80 [µg/mL]
1,B1,> 50
2,B2,> 50
3,B3,0.456

# Target: antibody 3BNC117
# Test: as above
# Procedure: as §1
row,Binder,neutralization IC80 [µg/mL]
1,B1,0.281
2,B2,> 50
3,B3,0.133

# Source: the supplement of paper PMC12637763
